Earlier results, collected in US8048918B2, “Treatment of hyperproliferative diseases” (Vampex Limited, priority 2000, dated 2011).

Tested on: retinol dehydrogenase
Settings: Boerman and Napoli, Biochemistry 34:7027-37, 1995; cited from earlier work

In the case of `O=[As]c1ccccc1` (stereo not shown), the IC50 is listed as 5 µM.
